Experimental data from patent US9625458B2, “Biosensor” (priority 2002, dated 2017).

Test: Fluorescence emission spectra without and with saturating ligand (wavelength shift, ΔIstd, ΔRmax)
Conditions: for λmax,apo (nm) / λmax,sat (nm): wavelength of emission maximum; for λmax,apo (nm): absence of ligand; for λmax,sat (nm): saturating ligand
Description: Fluorimetry. All measurements were conducted with an SLM Aminco-Bowman series 2 fluorimeter, with sample stirring at 25° C. Fluorescence emission spectra were acquired with excitation and emission slit widths of 4 and 8 nm, respectively. Photomultiplier tube potential was maintained between 400 and 800 volts. Protein concentrations were in the range of 50 to 1000 nM. Fluorophore-specific excitation was at the following approximate wavelengths: tryptophan, 290 nm; acrylodan, 390 nm; fluorescein, 485 nm; pyrene, 340 nm; NBD and NBDE, 490 nm; JPW4039, 485 nm; JPW4042, 470 nm; JPW4045, 470 nm.
Assessment of fluorescent biosensor function. Fluorescence emission spectra of bPBP-fluorophore conjugates were recorded in the absence and presence of saturating ligand concentrations. Spectral changes were characterized by four parameters: wavelength shift (the difference between the wavelengths of emission maximum in the unbound and ligand-saturated states), direction of intensity change (increase or decrease in intensity at the wavelengths of maximum emission in the two states), standard intensity change (ΔIstd), and standard ratiometric change (ΔR). ΔIstd is defined as the normalized intensity change relative to the average intensity, determined at the wavelength mid-point between the two emission maxima:
[formula] where λstd=(λmax, unbound+λmax, saturated)/2 and I1, I2 are the fluorescence intensities at λstd of each spectrum respectively (FIG. 4A). ΔR is defined in terms of two emission bands, A1 ([λ1, λ2]) and A2 ([λ3, λ4]) (FIG. 4B):
[formula] where ^∘A1, […] the areas in the absence of ligand, and ^∞A1, ^∞A2 the areas in the presence of saturating ligand. A computer program was used to enumerate ΔR for all possible pairs of wavelength bands in the two spectra, to identify the optimal sensing condition, defined as the maximum value of ΔR. Adjustable parameters of the algorithm, and their values used for ΔRmax quantities reported here, are: step size (2 nm), step width (10 nm), minimum integration area limit (fraction of total: 0.1), and maximum integration area limit (fraction of total: 1).

Substance | λmax,apo (nm) | λmax,sat (nm) | ΔRmax (maximum standard ratiometric change) (apo vs saturating ligand, optimal pair of emission bands)
sulfate BP L65C Acrylodan | 492 | 482 | 
sulfate BP L65C Fluorescein | 520 | 516 | 
sulfate BP L65C JPW4042 | 629 | 635 | 
sulfate BP L65C NBD | 522 | 521 | 
sulfate BP Q294C Acrylodan | 500 | 500 | 
sulfate BP Q294C Fluorescein | 515 | 514 | 
sulfate BP Q294C JPW4042 | 636 | 630 | 
sulfate BP Q294C NBD | 530 | 530 | 
sulfate BP R134C Acrylodan | 493 | 478 | 
sulfate BP R134C Fluorescein | 512 | 512 | 
sulfate BP R134C JPW4039 | 522 | 518 | 
sulfate BP R134C JPW4042 | 606 | 608 | 
sulfate BP R134C NBD | 531 | 532 | 
sulfate BP R134C-acrylodan: sulfate BP R134C mutant conjugated to acrylodan |  |  | 2.3
sulfate BP W290C Acrylodan | 496 | 496 | 
sulfate BP W290C Fluorescein | 516 | 515 | 
sulfate BP W290C JPW4042 | 612 | 624 | 
sulfate BP W290C NBD | 538 | 537 | 
sulfate BP Y67C Acrylodan | 503 | 502 | 
sulfate BP Y67C Fluorescein | 515 | 515 | 
sulfate BP Y67C NBD | 536 | 534 | 
